Values from PubChem BioAssay AID504761 (Drosophila RNAi Screening Center, 2011)
The deposit covers about 22,000 reagents; below is an unselected part of those with a known target gene and a result. In the full data, 116 (0.52%) were called active. 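Calls depend on retest data that are not deposited; infection was ranked per plate without normalising between plates; the unit of the infection score is not given.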 Raw values vary from plate to plate and are shown uncorrected. A number with no mark means an inactive call. Reagents against one gene are numbered here. Further read-outs or replicates are left out here. The record does not give: the amount of reagent, the time to read-out.

Screen: 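Insect host genes that dengue virus relies on to spread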 (primary screen)
Cells: D.Mel-2 cells from Drosophila
Reagents: long dsRNA against Drosophila genes
Treatment: infection with dengue virus type 2; dose and infection time not stated
Measured: 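Cells stained for dengue envelope protein and imaged; percent of infected cells per well on duplicate plates, ranked by infection, with stained nuclei counted for cell number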
Direction: infection score: higher = more virus-infected cells; cell count: higher = more cells in the well
Call rule: 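Very low infection ranking in both replicate wells (chance probability at most 0.065), then a retest showing infection dropped 1.5-fold or more at p below 0.05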
Calls: active = confirmed: knock-down lowers infection; inactive = not picked or not confirmed

| predicted target | dsRNA no. | infection score, replicate 1 | infection score, replicate 2 | cell count, replicate 1 |
| --- | --- | --- | --- | --- |
| ND-B14.5B (GeneID 33528) | 1 | 2.3 | 7.93 | 6259 |
| CG13847 (GeneID 42636) | 1 | 3.7 | 8.09 | 6602 |
| S-Lap1 (GeneID 38986) | 1 | 4.45 | 3.85 | 6472 |
| flap (GeneID 37519) | 1 | 4.73 | 2.6 | 5943 |
| flap (GeneID 37519) | 2 | 5.98 | 27.2 | 6249 |
| Hsp110 (GeneID 39557) | 1 | – | 10.9 | 213 |
| Hsp110 (GeneID 39557) | 2 | 0.77 | 5.78 | 6332 |
| su(w[a]) (GeneID 31054) | 1 | 3.86 | 8.21 | 5914 |
| su(w[a]) (GeneID 31054) | 2 | 10.9 | 14.7 | 5208 |
| eEF1gamma (GeneID 44791) | 1 | 4.1 | 4.5 | 3150 |
| eEF1gamma (GeneID 44791) | 2 | 4.21 | 5.05 | 6270 |
| CG13244 (GeneID 34940) | 1 | 5.67 | 14.9 | 5574 |
| mIF2 (GeneID 43382) | 1 | 2.15 | 6.13 | 6453 |
| mIF2 (GeneID 43382) | 2 | 14.4 | 11.5 | 4410 |
| Hrb27C (GeneID 33968) | 1 | 1.71 | 2.78 | 3735 |
| Hrb27C (GeneID 33968) | 2 | 6.54 | 1.96 | 2705 |
| karr (GeneID 50257) | 1 | 1.5 | 4.14 | 6007 |
| CSN1b (GeneID 40063) | 1 | 16.5 | 19.6 | 4726 |
| speck (GeneID 37867) | 1 | 22.3 | 16.9 | 6257 |
| speck (GeneID 37867) | 2 | 33.1 | 23.5 | 5588 |
| CheB53b (GeneID 3346204) | 1 | 5.43 | 4.3 | 6551 |
| CheB53b (GeneID 3346204) | 2 | 19.1 | 18.1 | 3875 |
| CG5447 (GeneID 43192) | 1 | 2.45 | 9.05 | 6197 |
| CG5447 (GeneID 43192) | 2 | 0.81 | 2.39 | 6381 |
| dpr9 (GeneID 2768670) | 1 | 19.9 | 35.9 | 2675 |
| dpr9 (GeneID 2768670) | 2 | 8.22 | 16.7 | 5776 |
| dpr9 (GeneID 2768670) | 3 | 10.6 | – | 4697 |
| dpr9 (GeneID 2768670) | 4 | 1.83 | 2.45 | 6572 |
| Itpr (GeneID 40664) | 1 | 4.07 | 5.62 | 5482 |
| Itpr (GeneID 40664) | 2 | 11.8 | 0.24 | 1539 |
| eIF3k (GeneID 37475) | 1 | 12.1 | 29 | 6180 |
| eIF3k (GeneID 37475) | 2 | 3.79 | 47.6 | 6961 |
| Cypl (GeneID 38069) | 1 | 3.34 | 1.57 | 5805 |
| Cypl (GeneID 38069) | 2 | 3.76 | 1.07 | 6140 |
| CG14435 (GeneID 31628) | 1 | 1.34 | 7.14 | 6025 |
| CG18675 (GeneID 50169) | 1 | 3.3 | 1.08 | 6272 |
| CG18659 (GeneID 35929) | 1 | 3.92 | 5.54 | 6781 |
| Pgant2 (GeneID 33556) | 1 | 5.51 | 3.26 | 6764 |
| Amy-p (GeneID 47764) | 1 | 13.2 | 2.52 | 5117 |
